{
  "source": "patent US20060280723A1",
  "about": "(priority 2003, published 2006)",
  "molecules": {"B1": {"name": "interferon β1a: interferon beta (IFNβ) subtype β1a (protein, UniProt P01574 22-187, looked up)", "Interferon beta": "MSYNLLGFLQRSSNFQCQKLLWQLNGRLEYCLKDRMNFDIPEEIKQLQQFQKEDAALTIYEMLQNIFAIFRQDSSSTGWNETIVENLLANVYHQINHLKTVLEEKLEKEDFTRGKLMSSLHLKRYYGRILHYLKAKEYSHCAWTIVRVEILRNFYFINRLTGYLRN"}},
  "key": {"[1]": {"test_system": "SARS-HCoV, strain Frankfurt-1"}, "[2]": {"test_system": "Vero E6 cells"}, "[3]": {"test_system": "SARS-HCoV 2003VA2774", "type": "cell-based, SARS human coronavirus (SARS-HCoV)"}},
  "data": [
    {"molecule": "Roferon: recombinant alpha IFN product (IFN-alpha 2a) from Roche", "values": [
      {"measurement": "IC50 Exp. Type 1, 10 TCID50", "setting": "[1]", "result": ">3.125", "unit": "IU/ml"},
      {"measurement": "IC50 Exp. Type 1, 100 TCID50", "setting": "[1]", "result": ">3.125", "unit": "IU/ml"},
      {"measurement": "IL50 Exp. Type 2, 10 TCID50", "setting": "[1]", "result": ">3.125", "unit": "IU/ml"},
      {"measurement": "IL50 Exp. Type 2, 100 TCID50", "setting": "[1]", "result": ">3.125", "unit": "IU/ml"},
      {"measurement": "OD values (baseline levels in the cytotoxicity assay)", "setting": "[2]", "result": "≤ 0.6"},
      {"measurement": "Tendency to increase baseline levels in the cytotoxicity assay", "setting": "[2]", "result": "showed a tendency to increase baseline levels"},
      {"measurement": "Concentration up to which cells were not fully protected from SARS-HCoV infection", "setting": "[3]", "result": "> 500000", "unit": "IU/ml"},
      {"measurement": "Inhibition of cytopathic effect", "setting": "[3]", "result": "did not show significant inhibition"}
    ]},
    {"molecule": "B1", "values": [
      {"measurement": "Inhibition of cytopathic effect", "setting": "[3]", "result": "did not show significant inhibition"}
    ]}
  ]
}
